# Reference: PubChem BioAssay AID588501 (NMMLSC, 2011)
# Sequences of proteins named here, by UniProt entry; tags and fusion partners are left off.
# UniProt P15917, whole entry, looked up: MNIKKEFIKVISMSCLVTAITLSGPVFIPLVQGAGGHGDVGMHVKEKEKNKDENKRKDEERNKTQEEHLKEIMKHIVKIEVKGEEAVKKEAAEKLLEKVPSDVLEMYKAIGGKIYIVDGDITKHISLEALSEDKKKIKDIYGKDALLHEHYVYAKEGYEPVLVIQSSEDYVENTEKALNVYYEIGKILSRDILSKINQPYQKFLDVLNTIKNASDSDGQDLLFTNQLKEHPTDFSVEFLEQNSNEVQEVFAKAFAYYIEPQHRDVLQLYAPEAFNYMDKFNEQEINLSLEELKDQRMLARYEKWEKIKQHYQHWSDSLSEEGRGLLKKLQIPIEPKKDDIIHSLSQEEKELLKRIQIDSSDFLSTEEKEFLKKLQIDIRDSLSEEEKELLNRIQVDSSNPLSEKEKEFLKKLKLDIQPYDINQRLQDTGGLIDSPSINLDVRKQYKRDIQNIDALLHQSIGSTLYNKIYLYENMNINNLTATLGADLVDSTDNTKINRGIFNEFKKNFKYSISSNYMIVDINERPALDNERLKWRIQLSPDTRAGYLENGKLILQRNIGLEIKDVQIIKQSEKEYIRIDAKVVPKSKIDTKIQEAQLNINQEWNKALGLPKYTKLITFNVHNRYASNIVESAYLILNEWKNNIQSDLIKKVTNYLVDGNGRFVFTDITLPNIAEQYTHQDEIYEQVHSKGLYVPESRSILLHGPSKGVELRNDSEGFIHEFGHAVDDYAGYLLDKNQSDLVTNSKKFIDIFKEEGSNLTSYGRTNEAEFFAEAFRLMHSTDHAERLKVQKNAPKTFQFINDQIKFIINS
# The list shows a part of the results, in another mix than the full data. Activity calls are given as the source filed them. Rule as the data show it: active = inhibition above about 30%; inconclusive = no clear call, values can overlap the other calls; inactive = below that.
# Target: Lethal factor (Bacillus anthracis) (UniProt P15917)
# Test: Bacillus anthracis LF protease inhibitors, primary screen, biochemical, multiplex microsphere, MLPCN library (AID 588501); also: plate controls were buffer without enzyme for full effect and enzyme alone for no effect
# Settings: multiplex microsphere protease cleavage assay, at 10 µM, hits give high values
row,SMILES,inhibition
1,CC(C)(C)C(=O)NC(Sc1ccncn1)C(Cl)(Cl)Cl (centres undefined),inactive: -1.2%
2,O=[N+]([O-])c1ncn(CCn2ncnc2[N+](=O)[O-])n1,inactive: 1.9%
3,O=[N+]([O-])c1cccc2n[nH]nc12,inactive: -3.8%
4,CC(=O)N1C2C3N(C(C)=O)C1C1N(C(C)=O)C(C(N1C(C)=O)N3C(C)=O)N2C(C)=O,inactive: -2.7%
5,Cc1ccc(NP(=O)(Oc2ccccc2)Oc2ccccc2)nc1,inactive: 2.2%
6,CCc1nc2c(n1)c1c(non1O)c1c2no[n+]1[O-],inactive: -0.2%
7,O=[N+]([O-])c1cc([N+](=O)[O-])c(CCNc2ccccc2)c([N+](=O)[O-])c1,inactive: -8%
8,COc1ccc(C2=NCC(CBr)S2)cc1 (centres undefined),inactive: -8.2%
9,CC(C)=N/N=C(\N)N[N+](=O)[O-],inactive: -0.1%
10,CC(C)c1nc(Nc2ccccc2)n(P(=O)(N(C)C)N(C)C)n1,inactive: -7.2%
11,CN(C)C(=O)OCCc1n(C)cc[n+]1C,inactive: 0.9%
12,c1cc(-c2nn[nH]n2)ccc1-c1nn[nH]n1,inactive: 1.5%
13,CC1CCN(C(=O)Oc2c(Cl)cc(Cl)c3cccnc23)CC1,inactive: 0.9%
14,Nc1ccc([As](=O)(O)c2ccc(N)cc2)cc1,inactive: -1.8%
15,C[N+]1=C2C=CC=CC=C2SC12C([N+](=O)[O-])=CC([N+](=O)[O-])=C[C-]2[N+](=O)[O-] (centres undefined),inactive: 0.7%
16,CCN(/C(=N/P(=O)(N1CCOCC1)N1CCOCC1)N1CCOCC1)c1ccc(OC)cc1,inactive: -0.1%
17,O=C(COc1ccccc1)OC1CN2CCC1CC2 (centres undefined),inactive: -2%
18,O=C(Nc1ccncc1[N+](=O)[O-])c1ccc([N+](=O)[O-])cc1[N+](=O)[O-],inactive: -5%
19,O=C(O)C(=O)c1ccc(N(CCCl)CCCl)cc1,inactive: -7.4%
20,COP1(=S)c2c(C)nn(CCC#N)c2N=C(c2ccc(F)cc2)N1C (centres undefined),inactive: -2.8%
21,COC(=O)C1(C)COP(=O)(N2CCCC2)OC1 (centres undefined),inactive: 3%
22,CCC(C)N(CC(C)C)C(=S)SC(NC(C)=O)C(Cl)(Cl)Cl (centres undefined),inactive: 2.6%

row,SMILES,inhibition
1,CCOC(=O)c1ccc(NC(=O)C(C)(CCl)SC)cc1 (centres undefined),inactive: 4%
2,O=C(OC1CN2CCC1CC2)c1cccc([N+](=O)[O-])c1 (centres undefined),inactive: 1.5%
3,CSc1ccc(Nc2c([N+](=O)[O-])cc([N+](=O)[O-])cc2[N+](=O)[O-])cc1,inactive: -7.5%
4,Cc1cc(SC(NC(=O)c2ccccc2)C(Cl)(Cl)Cl)nc(C(C)C)n1 (centres undefined),inactive: -1.6%
5,COP(=O)(OC)N1CC1c1ccccc1 (centres undefined),inactive: 6.5%
6,CC1CCNP(=O)(N(CCCl)CCCl)O1 (centres undefined),inactive: -2.8%
7,CCOC(=O)Nc1ccc([As](=O)(O)O)c(O)c1,inactive: -6.3%
8,O=C(O)C(O)c1ccc(N(CCCl)CCCl)cc1 (centres undefined),inactive: -1.5%
9,O=[N+]([O-])c1ccc(Nc2ccc(Oc3ccc([N+](=O)[O-])cc3[N+](=O)[O-])cc2)c([N+](=O)[O-])c1,inactive: -3.8%
10,O=P(Nc1ccccn1)(c1cccc2ccccc12)c1cccc2ccccc12,inactive: -2%
11,Cc1cc(SC(NC=O)C(Cl)(Cl)Cl)ncn1 (centres undefined),inactive: -1.3%
12,CCOC(=O)Nc1cccc([As](=O)(O)O)c1,inactive: 1.8%
13,Cc1ccc2nc3c(c(C)c2c1)CC(C(Cl)Cl)S3 (centres undefined),inactive: 0.6%
14,[N-]=[N+]=NC1CCCCC1NC(=O)c1cc([N+](=O)[O-])cc([N+](=O)[O-])c1 (centres undefined),inactive: 5.6%
15,Cc1ccc(OP(=O)(Nc2ccc([N+](=O)[O-])cn2)Oc2ccc(C)cc2)cc1,inactive: -6.9%
16,C[As](=O)(O)c1cccc(C(=O)O)c1,inactive: -7.1%
17,O=[As](O)(c1ccc(O)cc1)c1ccccc1O,inactive: -8.1%
18,O=[N+]([O-])c1ccc(-c2cc([N+](=O)[O-])c(O)c([N+](=O)[O-])c2)cc1,inactive: -4.9%
19,CCN(CC)C(=S)SC(NC=O)C(Cl)(Cl)Cl (centres undefined),inactive: 3.5%
20,O=C(OC1CN2CCC1CC2)c1cccc2[nH]cnc12 (centres undefined),inactive: 18.7%
21,CC(C)NC(=O)NP(=O)(Oc1ccccc1)Oc1ccccc1,inactive: -1.7%
22,O=[N+]([O-])c1cc([N+](=O)[O-])c(-c2ccn[nH]2)s1,inactive: -1.6%

row,SMILES,inhibition
1,CC(C)c1ccc(OP(=O)(Nc2ccccn2)Oc2ccccc2F)cc1 (centres undefined),inactive: 7.2%
2,COC(=O)C1(C)COP(=O)(N2CCCCCC2)OC1 (centres undefined),inactive: 1%
3,ClCCSc1nnc(-c2cccnc2)o1,inactive: 6.2%
4,COc1ccc2nc(NP(=O)(c3ccccc3)c3ccccc3)sc2c1,inactive: -5.8%
5,COc1cc(I)ccc1[As](=O)(O)O,inactive: -5.5%
6,O=P1(N(CCCl)CCCl)OCCCN1CCCl (centres undefined),inactive: 1%
7,O=P1(N(CCCl)CCCl)Nc2ccccc2N1,inactive: -11.4%
8,O=C(OC1CN2CCC1CC2)C12CC3CC(CC(C3)C1)C2 (centres undefined),inactive: -0.1%
9,Cc1cc(=O)[nH]c(N[N+](=O)[O-])n1,inactive: 0.6%
10,Cc1c2c(nc3ccccc13)SC(C(Cl)Cl)C2 (centres undefined),inactive: -1.1%
11,COc1ccc(N/C(=N/P(=O)(N2CCOCC2)N2CCOCC2)N2CCOCC2)cc1,inactive: -1.7%
12,O=[N+]([O-])c1cc(Oc2ccc([N+](=O)[O-])cc2C(F)(F)F)cc([N+](=O)[O-])c1,inactive: 4.7%
13,O=[As](O)(c1cccc(O)c1)c1cccc(O)c1,inactive: -1%
14,Cc1cccc(OCC(=O)OC2CN3CCC2CC3)c1 (centres undefined),inactive: -0.1%
15,O=[As](O)(O)c1cccnc1,inactive: 0.9%
16,CS(=O)(=O)c1ccc(Cl)c(NC(=O)COC(=O)C(O)(c2ccccc2)c2ccccc2)c1,inactive: -4.8%
17,COc1cc(C2NCCC3(OCCO3)C2(C)C)cc(OC)c1OC (centres undefined),inactive: -0.8%
18,CCOP(=O)(Nc1cccc2ccccc12)OCC,inactive: 0.8%
19,CCCOP(=S)(Nc1nc(N)cc(=O)[nH]1)OCCC,inactive: -4.8%
20,Cc1ccc(NCCc2c([N+](=O)[O-])cc([N+](=O)[O-])cc2[N+](=O)[O-])cc1,inactive: -1.6%
